In paper PMC11856326, “Structure-activity studies of bispyridinium antinicotinics to select candidates to treat soman intoxication as part of a combined therapy” (2025):

Test system: soman-poisoned guinea pig diaphragm
Experiment: Diaphragm muscle assay: recovery of tetanic response in soman-poisoned phrenic nerve-hemidiaphragm
Details: concentration-response curve, n = 4

## c1cc[n+](CCCCC[n+]2ccccc2)cc1
  recovery of the tetanic response over a broader concentration range: concentration-dependent recovery of the tetanic response up to 100 µM; also recorded: greatest at 100 and 300 µM and declined greatly at 1 mM

Entries after “also recorded” stand apart in the source; their conditions may differ. Certain results were filed several times, with different values. The other results are left out here. There may be further records. Results that share an entry differ, and nothing given here explains why; some may be repeats, others may stem from another dose, organism or construct than stated.
